Share of PSTVd loop 27 variants by leaf site

From the data files of Wu et al. 2024, doi:10.1371/journal.ppat.1012142.

PSTVd intermediate strain, loop 27: wild type UUUUCA, pool pattern UNNNNA; 5' to 3', with the closing base pair.

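A pool of all variants was put on leaves of three Nicotiana benthamiana plants. Progeny were sequenced from the inoculated region (day 5), the margin of the inoculated leaf (day 10) and systemic leaves (day 12).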

Numbers give reads per thousand; 0 = not seen among the reads, higher = more abundant.
Each value is the mean of three plants.
"Pool" is the share in the plasmid pool used as inoculum, on the same scale.
The inoculated region was read from the minus strand, the other sites from the plus strand.
Sequences that differ at fixed positions probably stem from PCR or sequencing errors, and defective variants can be carried along by functional ones.
For reference, wild type rose from 39.4 per thousand in the pool to 155, 124, 130 (inoculated region), 823, 907, 920 (leaf margin) and 805, 787, 933 (systemic leaves).
With 30,013-65,426 reads a sample, very low values are single reads.

UCGUCA (pool 1.37) read inoculated region 1.86; leaf margin 0.0288; systemic leaves 0.0105.
UCUUAA (pool 5.94) read inoculated region 4.41; leaf margin 0.642; systemic leaves 0.0690.
AGUGUA (pool 0.0136) read inoculated region 0; leaf margin 0; systemic leaves 0.
UAGGAC (pool 0.0136) read inoculated region 0.0126; leaf margin 0; systemic leaves 0.
UCAGGA (pool 2.62) read inoculated region 1.02; leaf margin 0.241; systemic leaves 0.0338.
GUUGCA (pool 0.0136) read inoculated region 0; leaf margin 0; systemic leaves 0.
UUAGCA (pool 2.99) read inoculated region 1.05; leaf margin 0.102; systemic leaves 0.0343.
UUUCAC (pool 0.462) read inoculated region 0.703; leaf margin 0.685; systemic leaves 0.149.
UAUCGA (pool 2.44) read inoculated region 2.13; leaf margin 0.201; systemic leaves 0.0289.
AAACGA (pool 0.0136) read inoculated region 0; leaf margin 0; systemic leaves 0.
UCAGAA (pool 1.53) read inoculated region 0.564; leaf margin 0.131; systemic leaves 0.0335.
UUUUAC (pool 0.0407) read inoculated region 0.130; leaf margin 0.0197; systemic leaves 0.00536.
UGUUGA (pool 4.85) read inoculated region 5.61; leaf margin 0.673; systemic leaves 0.0792.
UUUACC (pool 0.0136) read inoculated region 0; leaf margin 0; systemic leaves 0.
UAAAGA (pool 4.10) read inoculated region 1.89; leaf margin 0.151; systemic leaves 0.0173.
UUUUCU (pool 0.0951) read inoculated region 0.0814; leaf margin 2.70; systemic leaves 2.12.
AACUGA (pool 0.0272) read inoculated region 0.00630; leaf margin 0; systemic leaves 0.
UCUGAA (pool 4.93) read inoculated region 5.30; leaf margin 0.202; systemic leaves 0.0600.
UGACGA (pool 4.59) read inoculated region 1.53; leaf margin 0.414; systemic leaves 0.0167.
UUACCA (pool 1.71) read inoculated region 1.61; leaf margin 0.186; systemic leaves 0.0119.
UCAACA (pool 0.611) read inoculated region 0.420; leaf margin 0.0212; systemic leaves 0.
UGAGGA (pool 4.24) read inoculated region 1.49; leaf margin 0.426; systemic leaves 0.0435.
UUUCCG (pool 0.407) read inoculated region 0.164; leaf margin 0.0101; systemic leaves 0.0117.
CAAGCA (pool 0.0136) read inoculated region 0; leaf margin 0; systemic leaves 0.
UUCUCA (pool 2.32) read inoculated region 10.9; leaf margin 0.813; systemic leaves 0.251.
AAUCUA (pool 0.0136) read inoculated region 0; leaf margin 0; systemic leaves 0.
UGGAGA (pool 7.17) read inoculated region 2.86; leaf margin 0.542; systemic leaves 0.129.
UUCGAC (pool 0.598) read inoculated region 0.309; leaf margin 0.121; systemic leaves 0.00656.
UGAUAA (pool 3.71) read inoculated region 3.43; leaf margin 0.298; systemic leaves 0.0731.
AAGGAA (pool 0.0136) read inoculated region 0; leaf margin 0; systemic leaves 0.
UAGCGA (pool 2.32) read inoculated region 0.934; leaf margin 0.146; systemic leaves 0.0381.
GUGGAA (pool 0.0136) read inoculated region 0.00588; leaf margin 0; systemic leaves 0.
GCCAGA (pool 0.0136) read inoculated region 0; leaf margin 0; systemic leaves 0.
UGUGCA (pool 3.23) read inoculated region 0.998; leaf margin 0.0485; systemic leaves 0.0886.
UACCAA (pool 4.01) read inoculated region 4.20; leaf margin 0.377; systemic leaves 0.0561.
AAUUUA (pool 0.0136) read inoculated region 0; leaf margin 0; systemic leaves 0.
UGAUUA (pool 4.77) read inoculated region 5.71; leaf margin 0.873; systemic leaves 0.0941.
GAAUUA (pool 0.0136) read inoculated region 0.00546; leaf margin 0; systemic leaves 0.

The last 2 entries again:

{"sequence": "UGAUUA", "pool": "4.77", "inoculated region": 5.71, "leaf margin": 0.873, "systemic leaves": 0.0941}
{"sequence": "GAAUUA", "pool": "0.0136", "inoculated region": 0.00546, "leaf margin": 0, "systemic leaves": 0}